Pooled drug test results. Numbers come from NIAID ChemDB, via PubChem.

Shared fields: whole-cell or culture tests; organism: Candida albicans; measure: MIC50

An empty or dashed field is not shown. MIC50, MIC90 and the like: level of inhibition, or share of isolates inhibited. Rows are shuffled and stem from different studies.

structure	strain	method	conditions	result
COc1ccc(CN2C[C@H](OC[C@@]34C[C@@H]5[C@H](C)CC[C@H]5[C@@]5(C=O)C[C@@H]3CC(C(C)C)[C@@]45C(=O)O)O[C@H](C)C2)cc1	16 isolates/fluconazole resistant			0.002 µg/mL
CCCCCCCCCCCCCCCC(=O)NC1CCC(O)NC(=O)C2C(O)C(C)CN2C(=O)C(C(O)CC(N)=O)NC(=O)C(C(O)Cc2ccc(O)c(OS(=O)(=O)O)c2)NC(=O)C2CC(O)CN2C(=O)C(C(C)O)NC1=O	FP633			0.03 µg/mL
COc1ccc(C(Cc2ccc(Cl)cc2)n2cnnc2)cc1	28 strains			64 µg/mL
COc1ccc(C(Cc2ccc(Cl)cc2)n2ccnc2)cc1	34 strains			16 µg/mL
CCC(C)n1ncn(-c2ccc(N3CCN(c4ccc(OC[C@H]5CO[C@](Cn6cncn6)(c6ccc(Cl)cc6Cl)O5)cc4)CC3)cc2)c1=O				0.1 µg/mL
CC(=O)OCC1C=C(c2ccc(Cl)c(Cl)c2)C(=O)O1	9 isolates fluconazole-resistant			2 µg/mL
CC[C@@H]([C@H](C)O)n1ncn(-c2ccc(N3CCN(c4ccc(OC[C@@H]5CO[C@@](Cn6cncn6)(c6ccc(F)cc6F)C5)cc4)CC3)cc2)c1=O	156 isolates			≤0.004 µg/mL
OC(Cn1cncn1)(Cn1cncn1)c1ccc(F)cc1F				0.39 µg/mL
COc1ccc(C(Cc2ccc(Cl)cc2Cl)C(c2ccc(OC)cc2)n2ccnc2)cc1	28 strains			8 µg/mL
COc1ccc(C(Cc2ccccc2F)n2ccnc2)cc1	34 strains			128 µg/mL
C=CCSS(=O)CC=C	Clinical Isolate 0163	broth dilution		3.13 µg/mL
C[C@H]1[C@H](O)[C@@H](C)/C=C/C=C/C=C/C=C/C=C/C=C/C=C/[C@H](O[C@@H]2O[C@H](C)[C@@H](O)[C@H](N)[C@@H]2O)C[C@@H]2O[C@](O)(C[C@@H](O)C[C@@H](O)CC[C@H](O)[C@@H](O)C[C@@H](O)CC(=O)O[C@H]1C)C[C@H](O)[C@H]2C(=O)O	ATCC 90028			0.05 µg/mL
CC[C@@H]([C@H](C)O)n1ncn(-c2ccc(N3CCN(c4ccc(OC[C@@H]5CO[C@@](Cn6cncn6)(c6ccc(F)cc6F)C5)cc4)CC3)cc2)c1=O	SC5314	broth dilution / turbidity		0.03 µg/mL
N=C(N)N1CCN(Cc2cccnc2SCc2ccc(F)cc2F)CC1	SC5314 CAI			>100 µg/mL
CCCCCCCCCCCCCCCC(=O)NC1CC(O)C(O)NC(=O)C2C(O)C(C)CN2C(=O)C(C(O)CC(N)=O)NC(=O)C(C(O)C(O)c2ccc(O)c(OS(=O)(=O)O)c2)NC(=O)C2CC(O)CN2C(=O)C(C(C)O)NC1=O	FP578			0.008 µg/mL
COc1ccc(CC(c2ccc(OC)cc2)n2ccnc2)cc1	28 strains			16 µg/mL
CCC(C)n1ncn(-c2ccc(N3CCN(c4ccc(OC[C@H]5CO[C@](Cn6cncn6)(c6ccc(Cl)cc6Cl)O5)cc4)CC3)cc2)c1=O	131 isolates			0.03 µg/mL
CCC(c1ccc(OC)cc1)C(O)c1ccc(OC)cc1	28 strains			256 µg/mL
CC(C)=CCN=C(N)NCCCCCCCCCNCCCCCCCNC(N)=NCC=C(C)C	4T			80 µM
C=CCSS(=O)CC=C	ATCC 14053			0.05 µg/mL
CCC(c1ccc(Cl)cc1)C(c1ccc(OC)cc1)n1cncn1	28 strains			32 µg/mL
CCN(CC)CCCC(C)Nc1c2ccc(Cl)cc2nc2ccc(OC)cc12	SC5314	broth dilution	biofilm	256 µg/mL
N#Cc1ccc(CSc2ncccc2CN2CCN(C(=N)N)CC2)cc1	SC5314 CAI			>100 µg/mL
COc1ccc(CC(c2ccc(OC)cc2)n2cncn2)cc1	28 strains			64 µg/mL
COc1ccc(C(Cc2ccc(F)cc2)n2ccnc2)cc1	34 strains			32 µg/mL
N=C(N)N1CCN(Cc2cccnc2SCc2cc(Br)cc(Br)c2)CC1	SC5314 CAI			9.4 µg/mL
C=C(CF)CN1C[C@H](OC[C@@]23C[C@@H]4[C@H](C)CC[C@H]4[C@@]4(C=O)C[C@@H]2CC(C(C)C)[C@@]34C(=O)O)O[C@H](C)C1	16 isolates			0.004 µg/mL
CC(N1CCN(c2ccc(-n3cnnn3)cc2)C1=O)[C@](O)(Cn1cncn1)c1ccc(F)cc1F	105 strains			0.016 µg/mL
C=CCSS(=O)CC=C.OC(Cn1cncn1)(Cn1cncn1)c1ccc(F)cc1F	ATCC 14053			1 µg/mL
CN1CCN(c2ccc3nc(-c4ccc5nc(-c6ccc(O)cc6)[nH]c5c4)[nH]c3c2)CC1	RO20			9 µM
CS(=O)(=O)c1ccc(CSc2ncccc2CN2CCN(C(=N)N)CC2)cc1	SC5314 CAI			>100 µg/mL
COc1cc(O)c2c(c1)C(=O)c1c(cc3c(c1O)-c1c(cc(C)c(C(=O)NC(CO)C(=O)O)c1O)[C@H](OC1OC(C)C(O)C(OC4OCC(O)C(O)C4O)C1O)C3O)C2=O	34 isolates			4 µg/mL
COc1ccc(C(Cc2ccccc2N)n2ccnc2)cc1	34 strains			64 µg/mL
COc1ccc(C(O)Cc2ccc(Cl)cc2)cc1	28 strains			64 µg/mL
C[C@@H](SC1COC(/C=C/C=C/c2ccc(C#N)cc2F)OC1)[C@](O)(Cn1cncn1)c1ccc(F)cc1F	139 strains			≤0.008 µg/mL
COc1ccc([C@@H](Cc2ccc(Cl)cc2Cl)n2ccnc2)cc1	34 strains			2 µg/mL
CC[C@@H]([C@H](C)O)n1ncn(-c2ccc(N3CCN(c4ccc(OC[C@@H]5CO[C@@](Cn6cncn6)(c6ccc(F)cc6F)C5)cc4)CC3)cc2)c1=O	1992 isolates			0.03 µg/mL
C=C=CCN1C[C@H](OC[C@@]23C[C@@H]4[C@H](C)CC[C@H]4[C@@]4(C=O)C[C@@H]2CC(C(C)C)[C@@]34C(=O)O)O[C@H](C)C1	16 isolates/fluconazole resistant			0.03 µg/mL

The first 5 rows once more:

structure	strain	method	conditions	result
COc1ccc(CN2C[C@H](OC[C@@]34C[C@@H]5[C@H](C)CC[C@H]5[C@@]5(C=O)C[C@@H]3CC(C(C)C)[C@@]45C(=O)O)O[C@H](C)C2)cc1	16 isolates/fluconazole resistant			0.002 µg/mL
CCCCCCCCCCCCCCCC(=O)NC1CCC(O)NC(=O)C2C(O)C(C)CN2C(=O)C(C(O)CC(N)=O)NC(=O)C(C(O)Cc2ccc(O)c(OS(=O)(=O)O)c2)NC(=O)C2CC(O)CN2C(=O)C(C(C)O)NC1=O	FP633			0.03 µg/mL
COc1ccc(C(Cc2ccc(Cl)cc2)n2cnnc2)cc1	28 strains			64 µg/mL
COc1ccc(C(Cc2ccc(Cl)cc2)n2ccnc2)cc1	34 strains			16 µg/mL
CCC(C)n1ncn(-c2ccc(N3CCN(c4ccc(OC[C@H]5CO[C@](Cn6cncn6)(c6ccc(Cl)cc6Cl)O5)cc4)CC3)cc2)c1=O				0.1 µg/mL